# Library screen at single concentrations

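Growth of Mycobacterium tuberculosis over 4 days (cholesterol / DPPC medium with tyloxapol); the read-out is not stated. Concentration: 50 µM. Higher reads as more growth inhibition (inferred: compounds with an IC50 in retests scored well above the rest). About 69,000 compounds were tested under these conditions; 0.54% (about 370) showed 50% or more at least once.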

The filed quantity is “Percent Effect” (%). The controls that fix the scale are not given in the record; negative values are as filed. This is part of a subset picked to be rich in strong results. Two or more numbers in one place are separate tests of the same structure; such repeats can differ widely.

| SMILES | effect |
|---|---|
| `CN(C)c1ncnc2c1CCN(C(=O)CN1CCCCC1)C2` | 75.09 |
| `COc1ccc(CCC2CCCCN2)cc1.Cl` (stereo not given) | -3.788 |
| `c1cnnc(N2CCCC2CNc2nc3ccccc3o2)c1` (stereo not given) | -11.61 |
| `Cc1cnn(C2CCCN(C(=O)c3ccnc(N(C)C)c3)C2)c1` (stereo not given) | 99.67 |
| `CCOc1ccc(C(=O)NCc2ccnc(N3CCCC3)c2)cn1` | 4.165 |
| `O=C1CCN(C(=O)CCc2ccc(Cl)cc2Cl)CCN1` | 2.356 & -14.14 |
| `Cc1cc(C)nc(NC(=O)C(C)Oc2ccc3c(c2)OCO3)n1` (stereo not given) | -3.171 |
| `Cc1nc(-c2cccc(N3CCC(NC4CCOCC4)CC3)c2)cs1` | -3.591 |
| `O=C(c1cn(-c2ccccc2)nn1)N1CCCC(n2cccn2)C1` (stereo not given) | -18.2 |
| `OCC(CO)Nc1cccc(C(F)(F)F)n1` | -5.428 |
| `Cc1cc(C)nc(NC2CCC(=O)N(C)C2)n1` (stereo not given) | 8.302 |
| `Cc1ncsc1C(=O)NCc1cccs1` | -4.726 |
| `C=C/C=c1\c(=C/C)oc2c(NCc3ccccc3)nc(C)nc12` | 70.14 |
| `Cc1cc(-c2noc(C3CCS(=O)(=O)C3)n2)ccc1F` (stereo not given) | 12.03 |
| `COCCNc1nc(-c2ccc(S(=O)(=O)N3CCCCCC3)cc2)cs1` | 17.13 |
| `COc1ncc(C(=O)NCc2ccc(Br)cc2)cn1` | -2.002 |
| `Clc1ccc(CNc2ccc(Cl)cn2)cc1` | -12.6 |
| `NC(=O)C1CCN(C(=O)CCCc2ccc(Cl)c(Cl)c2)CC1` | -11.44 |
| `Cl.O=S(=O)(c1ccc(Cl)cc1)N1CCc2nc(C3CCNCC3)ncc2C1` | 19.64 |
| `Cc1ccc(CN(CCCn2ccnc2)Cc2c(F)cccc2F)s1.O=C(O)CC(O)(CC(=O)O)C(=O)O` | 13.38 |
| `CCc1c(C)sc(NC(=O)CN2CCN(CC)CC2)c1C(=O)OC` | 73.32 |
| `CN(C)CCNc1ccc(-c2nc(COc3ccccc3)no2)cn1` | 22.01 |
| `Cc1csc(C2CCCN(C(=O)c3cc(Cl)c[nH]3)C2)n1` (stereo not given) | 2.913 |
| `CCN1CCC(CNCc2cc(OC)ccc2OC)C1` (stereo not given) | -14.6 & -0.5244 |
| `CC(O)(CNc1ccccn1)c1ccccc1` (stereo not given) | -21.23 |
| `c1nc(-c2nc(C3CCOC3)no2)cs1` (stereo not given) | -25.43 & -6.622 |
| `COCc1noc(-c2ccc(N(C)Cc3ncccc3C)nc2)n1` | -1.136 & -14.03 |
| `COc1cccc(-n2nnc(C(=O)N3CCCC3)c2C)c1` | 8.633 |
| `Cc1nc2c(cc1C(=O)O)CCN(Cc1ccsc1)CC2.O=C(O)C(F)(F)F.O=C(O)C(F)(F)F` | -14.33 |
| `C=C/C=c1\c(=C/C)oc2c(NCc3ccccc3)nc(CC)nc12` | 58.86 |
| `CN(C)C(=O)COCC1CN(Cc2ccoc2)Cc2nnn(C)c21` (stereo not given) | -29.46 |
| `CC1(NC(=O)CC2CCc3ccccc32)CCOCC1` (stereo not given) | 90.9 & 5.78 |
| `CCNC(=O)N(C)C(c1ccccc1)c1ccccn1` (stereo not given) | 25.29 |
| `CCN(CC)CCn1c(=O)oc2ccccc21.Cl` | 0.625 |
| `COc1ncc(C)cc1NC(=O)COc1ccccc1F` | -6.366 |
| `CN1CCN(c2cc(CNC(=O)c3ccsc3)ccn2)CC1` | 6.357 |
| `COc1cc(C(C)=O)ccc1OCC(=O)c1cccn1C` | -5.444 & -23.76 |
| `CCC(C)(C)NC(=O)c1nnn(-c2cccc3c2CCN(C)C3)c1C` | 0.7076 & 5.085 |
| `O=C(O)C(F)(F)F.O=C1N(Cc2cccnc2)CCC12CCCN(c1ncc(F)cn1)C2` (stereo not given) | -8.327 |
| `c1ccc(CN2CCC(NCCSc3cnn[nH]3)CC2)cc1` | -9.922 |
| `NCC1CN(c2nc(-c3ccccc3)nc3c2CCNCC3)CCO1` (stereo not given) | -13.29 |
| `CCCc1nc(N2CC[C@@H](c3ccc4c(c3)OCO4)[C@H](O)C2)no1` | 51.82 |
| `O=S(=O)(CCN1CCN(c2ccccc2O)CC1)c1ccc(Br)cc1` | 8.497 |
| `CC(=O)N1CCCC2(C1)CN(C(=O)c1ccncc1)CCO2` (stereo not given) | -7.472 & 7.465 |
| `CC(C)Oc1ccc(CNC(=O)C2CCC(=O)N2)cn1` (stereo not given) | -31.22 |
| `Cl.FC(F)(F)c1ccc(-c2cnc(C3CCCN3)cn2)cc1` (stereo not given) | 50.49 & 37.43 |
| `CC(NC(=O)Cn1cccnc1=O)c1ccc(OC(F)(F)F)cc1` (stereo not given) | 2.139 & -30.83 |
| `CCCc1cc(C(=O)NC(C)c2ccccc2)n(C)n1` (stereo not given) | 15.55 & 3.339 |
| `CCCc1nc(N(C)Cc2ccco2)c2c(n1)c(C)nn2CC` | 53.88 |
| `CCN(CC1CCOC1)C(=O)c1ccc(N(C)C)cc1F` (stereo not given) | 9.085 |
| `COc1cccc(COCC(=O)N2CCCCCC2)c1` | -10.42 |
| `CC(C)CN1Cc2c(C(=O)N(C)C)ncn2-c2ccccc2S1(=O)=O` | -4.362 |
| `COc1cccc(CN(C)C(=O)Nc2ccc3c(c2)OCCO3)c1` | 1.743 |
| `Cc1nc(NCCSc2ccccn2)c2c(C)noc2n1` | -3.762 |
| `CC(C)(C(=O)NCC(=O)N1CCCC1)c1ccccc1F` | 0.9573 |
| `O=C(NCc1ccco1)c1cccc(C(=O)NCc2ccco2)n1` | -14.27 |
| `CC(CNC(=O)c1c[nH]nn1)Oc1cccc(Br)c1` (stereo not given) | 12.34 & 4.715 |

3 of the entries, repeated:

SMILES,effect
COc1cccc(CN(C)C(=O)Nc2ccc3c(c2)OCCO3)c1,1.743
COc1cccc(COCC(=O)N2CCCCCC2)c1,-10.42
Cc1cc(-c2noc(C3CCS(=O)(=O)C3)n2)ccc1F (stereo not given),12.03

Source: ChEMBL document CHEMBL3988442, “University of Dundee, Small-Polar-MMV Screening Library” (2021).